A mixed list of measured activities; the numbers were collected in NIAID ChemDB.

Common to all: whole-cell or culture tests; agent: Aspergillus niger; measure: MIC100

Conditions beyond the fields shown may differ between rows. A number after MIC or MFC names an inhibition level or a share of isolates.

SMILES	strain	value
CC(=O)Nc1ccc(OCC(=O)N2N=C(c3nc4ccccc4[nH]3)CC2c2cccc(Cl)c2)cc1	MTCC 282	500 µg/mL
O=C1CSC(N2N=C(c3ccc(O)cc3)CC2c2cc3ccccc3nc2Cl)=N1	MTCC 282	500 µg/mL
CC(=O)Nc1ccc(OCC(=O)N2N=C(c3nc4ccccc4[nH]3)CC2c2cccc([N+](=O)[O-])c2)cc1	MTCC 282	500 µg/mL
Cc1ccc2sn(N(S(=O)(=O)c3ccc(N)cc3)S(=O)(=O)c3ccc(N)cc3)c(=O)c2c1	ATCC 6275	>100 µg/mL
FC(F)(F)c1nc(OCc2nc(-c3ccco3)n[nH]2)c2ccccc2n1	MTCC 282	12.5 µg/mL
O=C1CSC(N2N=C(c3cccc(F)c3)CC2c2cc3ccccc3nc2Cl)=N1	MTCC 282	500 µg/mL
Cc1ccccc1N1C(=O)C(Cl)C12C(=O)Nc1ccccc12	MTCC 343	24 µg/mL
COc1ccc(N2CCN(c3nc4ccc5c(ccc(=O)n5C)c4s3)CC2)cc1	MTCC 282	50 µg/mL
Nc1ccc(S(=O)(=O)Nn2sc3ccccc3c2=O)cc1	ATCC 6275	>100 µg/mL
Cc1ccc(-c2n[nH]c(COc3ncnc4ccccc34)n2)cc1	MTCC 282	12.5 µg/mL
O=c1ccc2c(ccc3nc(N4CCN(c5cccc(Cl)c5Cl)CC4)sc32)o1	MTCC 282	100 µg/mL
O=C1CSC(N2N=C(c3ccc(Cl)cc3)CC2c2cc3ccccc3nc2Cl)=N1	MTCC 282	100 µg/mL
CC(=O)Nc1ccc(OCC(=O)N2N=C(c3nc4ccccc4[nH]3)CC2c2ccccc2F)cc1	MTCC 282	50 µg/mL
O=C1C(Cl)C2(C(=O)Nc3ccccc32)N1c1ccccc1[N+](=O)[O-]	MTCC 343	17 µg/mL
COc1cc(-c2n[nH]c(COc3nc(C)nc4ccccc34)n2)cc(OC)c1OC	MTCC 282	12.5 µg/mL
O=c1ccc2c(ccc3nc(N4CCN(c5ccccc5F)CC4)sc32)o1	MTCC 282	200 µg/mL
O=C1C(Cl)C2(C(=O)Nc3ccccc32)N1c1ccccc1	MTCC 343	22 µg/mL
CC(=O)Nc1ccc(OCC(=O)N2N=C(c3nc4ccccc4[nH]3)CC2c2ccc(F)cc2)cc1	MTCC 282	25 µg/mL
Cc1ccc(-c2nc3ccccc3c(=O)n2-c2ccc(C(=O)NN3C(=O)/C(=C/c4ccc(N(C)C)cc4)SC3c3ccc(F)cc3)cc2)cc1	MTCC 282	1000 µg/mL
Cn1c(=O)ccc2c3sc(N4CCN(c5ccccn5)CC4)nc3ccc21	MTCC 282	100 µg/mL
Cc1ccc(N2C(=O)C(Cl)C23C(=O)Nc2c(Br)cc(Br)cc23)cc1	MTCC 343	>100 µg/mL
CC1CC(c2ccncc2)Nc2ccc(Br)cc21	ATCC 9029	>250 µg/mL
CC(=O)Nc1ccc(S(=O)(=O)Nn2sc3ccc(C)cc3c2=O)cc1	ATCC 6275	>100 µg/mL
COc1ccc(/C=C2\SC(c3ccc(F)cc3)N(NC(=O)c3ccc(-n4c(-c5ccc(C)cc5)nc5ccccc5c4=O)cc3)C2=O)c(O)c1	MTCC 282	1000 µg/mL
FC(F)(F)c1nc(OCc2nc(-c3cccs3)n[nH]2)c2ccccc2n1	MTCC 282	6.25 µg/mL
Cc1ccc(-c2nc3ccccc3c(=O)n2-c2ccc(C(=O)NN3C(=O)/C(=C/c4ccccc4)SC3c3ccc(F)cc3)cc2)cc1	MTCC 282	1000 µg/mL
Cc1nc(OCc2nc(-c3ccco3)n[nH]2)c2ccccc2n1	MTCC 282	6.25 µg/mL
O=C1CSC(N2N=C(c3ccccc3F)CC2c2cc3ccccc3nc2Cl)=N1	MTCC 282	250 µg/mL
Cc1ccc(-c2n[nH]c(COc3nc(C)nc4ccccc34)n2)cc1	MTCC 282	25 µg/mL
CC(=O)Nc1ccc(OCC(=O)N2N=C(c3nc4ccccc4[nH]3)CC2c2ccccc2Br)cc1	MTCC 282	100 µg/mL
O=c1ccc2c(ccc3nc(N4CCN(c5ccccn5)CC4)sc32)o1	MTCC 282	200 µg/mL
O=C1C(Cl)C2(C(=O)Nc3c(Br)cc(Br)cc32)N1c1ccc([N+](=O)[O-])cc1	MTCC 343	23 µg/mL
Oc1ccc(-c2n[nH]c(COc3nc(C(F)(F)F)nc4ccccc34)n2)cc1	MTCC 282	25 µg/mL
CC(=O)Nc1ccc(OCC(=O)N2N=C(c3nc4ccccc4[nH]3)CC2c2ccccc2)cc1	MTCC 282	250 µg/mL
Cc1ccc(-c2nc3ccccc3c(=O)n2-c2ccc(C(=O)NN3C(=O)/C(=C/c4ccc(F)cc4)SC3c3ccc(F)cc3)cc2)cc1	MTCC 282	50 µg/mL
Cc1nc(OCc2nc(-c3ccc(Cl)cc3)n[nH]2)c2ccccc2n1	MTCC 282	25 µg/mL
O=c1ccc2c(ccc3nc(N4CCN(C(c5ccccc5)c5ccc(Cl)cc5)CC4)sc32)o1	MTCC 282	62.5 µg/mL
CC(=O)Nc1ccc(OCC(=O)N2N=C(c3nc4ccccc4[nH]3)CC2c2ccc(Br)cc2)cc1	MTCC 282	25 µg/mL

4 of the rows above, restated:

SMILES | strain | value
O=C1C(Cl)C2(C(=O)Nc3c(Br)cc(Br)cc32)N1c1ccc([N+](=O)[O-])cc1 | MTCC 343 | 23 µg/mL
Cc1ccc2sn(N(S(=O)(=O)c3ccc(N)cc3)S(=O)(=O)c3ccc(N)cc3)c(=O)c2c1 | ATCC 6275 | >100 µg/mL
O=c1ccc2c(ccc3nc(N4CCN(c5ccccc5F)CC4)sc32)o1 | MTCC 282 | 200 µg/mL
Nc1ccc(S(=O)(=O)Nn2sc3ccccc3c2=O)cc1 | ATCC 6275 | >100 µg/mL